Reference: PubChem BioAssay AID624099 (ICCB-Longwood, 2012)

Test: 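Host factors E2 relies on to silence an HPV18 LCR reporter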 (primary screen)
System: human C33A cervical carcinoma cells (HPV-negative) stably expressing BPV1 E2 and an HPV18 LCR luciferase reporter
Reagent: siRNA pool against human genes, 40 nM
Duration: 72 h
Read-out: 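HPV18 LCR reporter light per well, converted to plate-wise z-scores that exclude control wells, and averaged over triplicate plates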
Direction: mean z-score and z-score: higher = stronger reporter signal, weaker E2 silencing
Rule for the call: 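Hit if mean z-score reaches 2 and two or more of three replicate z-scores also reach 2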
Shown is an unselected part of about 21,000 reagents tested. In the full data, 497 (2.4%) got an active call. 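Higher z means weaker E2 silencing; only reporter increases were scored, and knock-downs that hurt cell survival may mask genuine repressor factors.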 A number with no mark means an inactive call. The numbers tell different reagents against one gene apart.

| Gene | pool no. | mean z-score | z-score, replicate A | z-score, replicate B | z-score, replicate C |
| --- | --- | --- | --- | --- | --- |
| KMO | 1 | 2.52 (active) | 2.52 | 2.45 | 2.59 |
| RPSAP32 | 1 | 0.23 | 0.5 | 0.07 | 0.11 |
| SMYD4 | 1 | 1.19 | 0.99 | 1.72 | 0.86 |
| FLG | 1 | 0.1 | 0.11 | 0.18 | 0.01 |
| FLG | 2 | -0.38 | -0.05 | -0.36 | -0.73 |
| MTHFD2L | 1 | -1.38 | -1.5 | -1.69 | -0.96 |
| MTHFD2L | 2 | 0.68 | 1.12 | 0.38 | 0.54 |
| KCNH7 | 1 | -2.23 | -2.08 | -2.39 | -2.21 |
| CASQ1 | 1 | -0.54 | -0.65 | -0.42 | -0.56 |
| ACSS3 | 1 | -0.53 | -0.79 | -0.98 | 0.17 |
| ACTR8 | 1 | 1.05 | 0.86 | 1.19 | 1.1 |
| WARS1 | 1 | 0.84 | 0.64 | 1.11 | 0.77 |
| MTG1 | 1 | 0.9 | 1.29 | 0.94 | 0.47 |
| DISP2 | 1 | -0.89 | -0.69 | -0.95 | -1.02 |
| ZNF322P1 | 1 | 0.08 | 0.03 | 0.28 | -0.06 |
| WLS | 1 | -0.02 | -0.22 | 0.24 | -0.09 |
| TTC21A | 1 | 0.8 | 0.93 | 0.34 | 1.12 |
| CABP4 | 1 | 0.2 | 0.97 | -0.29 | -0.09 |
| ZNF761 | 1 | 0.3 | -0.17 | 0.36 | 0.7 |
| LINC01122 | 1 | 1.94 | 2.79 | 1.61 | 1.42 |
| CCDC54 | 1 | -1.49 | -1.19 | -1.32 | -1.97 |
| SOX17 | 1 | -1.13 | -1.25 | -1.51 | -0.62 |
| SEC14L1 | 1 | -0.09 | -0.27 | -0.09 | 0.08 |

Not a retest: 3 of the entries above.
| Gene | pool no. | mean z-score | z-score, replicate A | z-score, replicate B | z-score, replicate C |
| --- | --- | --- | --- | --- | --- |
| SMYD4 | 1 | 1.19 | 0.99 | 1.72 | 0.86 |
| FLG | 1 | 0.1 | 0.11 | 0.18 | 0.01 |
| FLG | 2 | -0.38 | -0.05 | -0.36 | -0.73 |
